This experiment concerns peripheral blood mononuclear cells (PBMCs). Put plainly: IL-2 production by SEB-stimulated PBMCs (ELISA). It is filed as cell-based, human. The following applies: Compound A treatment. (In general: An ELISA detects its analyte on a solid surface through an enzyme-linked reagent.)

Take `Cc1ccc2ccccc2c1CN1CCN(c2c([N+](=O)[O-])c(=O)n(C)c3ccccc23)CC1` [Compound A]: the “fold production of IL-2” value is on record as 2 fold.

The values are drawn from publication PMC6712002, “Comprehensive in vitro characterization of PD-L1 small molecule inhibitors” (Scientific Reports, 2019).
